From ChEMBL document CHEMBL1142087 (Antimicrob Agents Chemother, 2007)

Key:
[1] = test system: Influenza A virus; test: Reduction of lung viral titre in BALB/c mouse infected with influenza A virus (A/duck/Minnesota/1525/1981 (H5N1)) at 100 mg/kg/day, po qid for 5 days administered 1 hr after infection measured on day 1 relative to carboxymethyl cellulose
[2] = test system: Influenza A virus; test: Reduction of lung viral titre in BALB/c mouse infected with influenza A virus (A/duck/Minnesota/1525/1981 (H5N1)) at 300 mg/kg/day, po qid for 5 days administered 1 hr after infection measured on day 1 relative to carboxymethyl cellulose
[3] = test system: Influenza A virus; test: Reduction of lung viral titre in BALB/c mouse infected with influenza A virus (A/duck/Minnesota/1525/1981 (H5N1)) at 33 mg/kg/day, po qid for 5 days administered 1 hr after infection measured on day 1 relative to carboxymethyl cellulose
[4] = test system: Influenza A virus; test: Reduction of lung viral titre in BALB/c mouse infected with influenza A virus (A/duck/Minnesota/1525/1981 (H5N1)) at 20 mg/kg/day, po twice daily for 5 days administered 1 hr after infection measured on day 1 relative to carboxymethyl cellulose

Compound	Log10CCID50/g [1]	Log10CCID50/g [2]	Log10CCID50/g [3]	Log10CCID50/g [4]
NC(=O)c1nc(F)cnc1O	4.9	3.5	5.8	
CCOC(=O)C1=C[C@@H](OC(CC)CC)[C@H](NC(C)=O)[C@@H](N)C1 [OSELTAMIVIR]				6.1
